These are literature values, as cited in PMC5614878.

As a reminder, the Kd is the free concentration of one partner at which half of the binding sites on the other are occupied at equilibrium, for simple one-to-one binding.

The target of the data set is HIV-1 reverse transcriptase p51 p51 (Human immunodeficiency virus 1) (UniProt O93215). Conditions: cited from earlier work.

On to “HIV-1 reverse transcriptase p51 p51 (from UniProt O93215)”, for which the Kd is 230 µM.
